Laboratory results published in publication PMC3777863.

Experiments:
[1] = target: BG505 SOSIP.664 gp140 trimer (HIV-1 (subtype A, BG505)); experiment: negative stain EM
[2] = target: BG505 SOSIP.664 gp140 trimer (HIV-1 (subtype A, BG505)); experiment: native gel or EMSA
[3] = target: BG505 SOSIP.664 gp140 trimer (HIV-1 (subtype A, BG505)); experiment: SEC

Measured: stoichiometry N

BG505 SOSIP.664 gp140 trimer (complex)
3: all assays above
